Assay results from patent US20240207463A1, “RADIOACTIVE COMPLEX OF ANTI-EGFR ANTIBODY, AND RADIOPHARMACEUTICAL” (NIHON MEDI-PHYSICS CO., LTD., priority 2021, published 2024).

Test system: A431 cells
Assay: Antitumor effect in subcutaneous tumor-bearing model of A431
Format: in vivo
Conditions: 15 kBq/mouse (100 μg/mouse as cetuximab) tail vein, 37 day point, P<0.05 or P<0.01

## Comparative Example 1: Conjugate with cetuximab by using 225Ac-labeled DOTA-DBCO; contains a thiourea bond [reference compound]
  antitumor effect versus antibody control group and Vehicle group: significant difference in the antitumor effect
